Compound potency records, mixed from different reports. Data source: NIAID ChemDB in PubChem.

Shared fields: whole-cell or culture tests; organism: Plasmodium falciparum

Conditions beyond the fields shown may differ between rows. An empty or dashed field is not shown. ECn is the concentration giving n% inhibition of infection, replication or growth.

CCN(CC)CCCC(C)Nc1ccnc2cc(Cl)ccc12 ; read-out: EC50 ; strain: W2 ; value: 0.43 µM
C[C@@H]1C[C@H](C)C[C@H](C)[C@@H](O)CC(=O)O[C@@H](C2CCC[C@H]2C(=O)O)C/C=C/C=C(/CN)[C@H](O)[C@@H](C)C1 ; read by: LDH ; cell line: Erythrocyte ; read-out: EC50 ; strain: K1 ; value: 0.00093 µg/mL
C[C@@H]1CC[C@H]2[C@@H](C)C(=O)O[C@@H]3OC4(C)CC[C@@H]1[C@]32OO4 ; read by: SYBR Green / fluorescence ; changes: KAE609-resistant pfatp4 D1247Y ; read-out: EC50 ; strain: KAE609R-3 ; value: 0.0103 µM
c1ccc(C(CCNCC2(c3ccc4c(c3)OCCO4)CCOCC2)c2ccccc2)cc1 ; read by: flow cytometry ; cell line: Erythrocytes ; read-out: EC50 ; strain: 3D7 ; value: >13.8 µM
O[C@H](c1cc(C(F)(F)F)nc2c(C(F)(F)F)cccc12)[C@@H]1CCCCN1 ; read by: SYBR Green / fluorescence ; changes: GNF-Pf4492-resistant pfatp4 A187V ; read-out: EC50 ; strain: GNF-Pf4492R-3 ; value: 0.0161 µM
C=C1CN2CCC34c5ccccc5N5C=C([C@H]6CC7C8=C(CCN7C/C6=C/C)C6C=CC=CC6N8)[C@@H](O)[C@@H]([C@H]53)[C@H]1C[C@]24O ; read-out: EC50 ; strain: 3D7 ; value: 3.651 µg/mL
CCc1ccc(OCCCCN(C)Cc2ccccc2)cc1 ; read by: flow cytometry ; cell line: Erythrocytes ; read-out: EC50 ; strain: 3D7 ; value: >12.4 µM
C/C=C1/CN2CCC34c5ccccc5N5C(OC)C67OC(C([C@H]53)[C@H]1C[C@H]24)N1c2ccccc2C2(CCN3C/C(=C/C)[C@@H]6C[C@H]32)[C@@H]17 ; read-out: EC50 ; strain: 3D7 ; value: 0.827 µg/mL
c1ccc(-c2ccccc2OCCCCN2CCCCC2)cc1 ; read by: flow cytometry ; cell line: Erythrocytes ; read-out: EC50 ; strain: K1 ; value: 3.11 µM
OCCNc1nc(NCCCCNc2ccnc3cc(Cl)ccc23)nc(N2CCOCC2)n1 ; read-out: EC50 ; strain: W2 ; value: 0.59 µM
CC1CCN(CCCCOc2ccc(C(=O)c3ccccc3)cc2)CC1 ; read by: flow cytometry ; cell line: Erythrocytes ; read-out: EC50 ; strain: K1 ; value: 6.1 µM
OCCNc1nc(NCCCCNc2ccnc3cc(Cl)ccc23)nc(N2CCCCC2)n1 ; read-out: EC50 ; strain: D6 ; value: 0.19 µM
CCCCC1(CC(=O)OCC)C(=O)N(c2ccccc2)N(c2ccccc2)C1=O ; read by: flow cytometry ; cell line: Erythrocytes ; read-out: EC50 ; strain: K1 ; value: 7.91 µM
OCCCCNc1nc(NCCNc2ccnc3cc(Cl)ccc23)nc(N2CCOCC2)n1 ; read-out: EC50 ; strain: W2 ; value: 1.52 µM
CCCCN(CCCC)CC(O)COc1cccc2ccccc12 ; read by: flow cytometry ; cell line: Erythrocytes ; read-out: EC50 ; strain: 3D7 ; value: 1.55 µM
CC1(C)O[C@@H]1COc1c2occc2cc2ccc(=O)oc12 ; cell line: RBC ; read-out: EC90 ; strain: CQ-sensitive ; value: 31 µg/mL
C/C=C1/CN2CCc3c([nH]c4ccccc34)C2C[C@@H]1C1=CN2c3ccccc3C34CCN5CC6=CCO[C@@H]1[C@@H]([C@H]23)[C@H]6C[C@H]54 ; read-out: EC90 ; strain: 3D7 ; value: 1.415 µg/mL
OCCCNc1nc(NCCNc2ccnc3cc(Cl)ccc23)nc(N2CCCCC2)n1 ; read-out: EC50 ; strain: D6 ; value: 0.21 µM
C=C1C(=O)O[C@@H]2/C=C(\COC(C)=O)CC/C=C(/C=O)C[C@@H](O)[C@@H]12 ; read by: LDH / absorbance ; read-out: EC50 ; strain: W2 ; value: 0.77 µg/mL
COc1cc(O)c2c(=O)c(O)c(-c3ccc(O)c(O)c3)oc2c1 ; read-out: EC90 ; strain: Clinical isolates ; value: 133 µM
CC(C)(c1ccccc1)c1ccc(OCCCn2ccnc2)cc1 ; read by: flow cytometry ; cell line: Erythrocytes ; read-out: EC50 ; strain: 3D7 ; value: 5.38 µM
OCCNc1nc(NCCNc2ccnc3cc(Cl)ccc23)nc(N2CCCCC2)n1 ; read-out: EC50 ; strain: D6 ; value: 0.19 µM
CCN(CC)CCOc1ccccc1C(=O)CCc1ccccc1 ; read by: flow cytometry ; cell line: Erythrocytes ; read-out: EC50 ; strain: K1 ; value: 1.01 µM
OCCCNc1nc(NCCCCNc2ccnc3cc(Cl)ccc23)nc(N2CCOCC2)n1 ; read-out: EC50 ; strain: D6 ; value: 0.22 µM

Again, the opening 2 rows:

smiles,read by,cell line,changes,read-out,strain,value
CCN(CC)CCCC(C)Nc1ccnc2cc(Cl)ccc12,-,-,-,EC50,W2,0.43 µM
C[C@@H]1C[C@H](C)C[C@H](C)[C@@H](O)CC(=O)O[C@@H](C2CCC[C@H]2C(=O)O)C/C=C/C=C(/CN)[C@H](O)[C@@H](C)C1,LDH,Erythrocyte,-,EC50,K1,0.00093 µg/mL